Assay results reported in article PMC5114727, “Biological characterization of chemically diverse compounds targeting the Plasmodium falciparum coenzyme A synthesis pathway” (Parasites & Vectors, 2016).

How the values were obtained:
[1] = test system: P. falciparum developmental stages; assay: Activity across all P. falciparum life-cycle stages tested (asexual, early and late gametocytes); format: cell-based, Plasmodium falciparum
Procedure: Induction of P. falciparum gametocyte differentiation and gametocyte culturing were performed as previously described. Compound activity against early stage gametocytes (covering the development from stage I to IIb/III) and late stage gametocytes (stage IV to V) of the recombinant P. falciparum line NF54^Pfs16 was assessed in concentration-response assays, in two experimental replicates consisting of two technical repeats each, at a highest concentration of 40 μM, as described earlier.

[2] = test system: T. b. brucei trypomastigote; assay: T. b. brucei resazurin (Alamar Blue) viability assay; format: cell-based, Trypanosoma brucei brucei; conditions: HEK293 cytotoxicity from ref 22
Procedure: Compound activity against two members of another clinically important group of parasites, the kinetoplastids T. cruzi and T. b. brucei was determined. The sensitive high content imaging assay used to determine compound activity against T. cruzi assesses the intracellular amastigote life form of the parasite in the 3T3 host cell. […] The T. b. brucei assay employs the REDOX indicator Alamar Blue to assess viability, which was developed into a 384-well assay format.
Compound activity against T. b. brucei was assessed in a resazurin-based viability assay in concentration-response assays, without technical repeats, in two experimental replicates at a highest concentration of 40 μM, as previously described.

| Structure (SMILES) | overall SI over human embryonic kidney cells (HEK293) [1] | SI over HEK293 (T. b. brucei trypomastigote) [2] |
| --- | --- | --- |
| Cc1csc(Sc2ncnc3sccc23)n1 [Amb180780] | > 482 | – |
| CCc1ccc(Nc2cc(C)c3ccc(O)cc3n2)cc1.Cl [MMV000570] | – | 6.8 |
| CC1=CC(=O)C(C(C)C)=C/C1=N/OS(=O)(=O)c1ccccc1 [STK 740987] | above 94 | – |
